Reference: PubChem BioAssay AID1259414 (Drosophila RNAi Screening Center, 2018)

- Purpose: 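Host factors increasing or decreasing Wolbachia levels in cultured fly cells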 (primary screen)
- Cell system: Drosophila JW18 cells infected with Wolbachia
- Reagent: long dsRNA against Drosophila genes, 0.25 µg dsRNA per well of a 384-well plate
- Timing: 5 days
- Treatment: cells persistently infected with Wolbachia before knock-down; no added drug
- Measured: 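Automated imaging of bacterial rRNA staining divided by host cell count, reported as plate-normalised robust z-score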
- Scale: Wolbachia per cell robust z: higher = more Wolbachia per host cell than the plate typical
- Rule for the call: 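Active if absolute robust z reaches 1.5 in two or more of three replicates, leaving out multi- or no-target dsRNAs, genes unexpressed in JW18 and A1 wells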
The screen tested about 24,000 reagents; shown is an unselected part of those with a known target gene and a result. Over the whole deposit, about 1,210 (5%) are marked active. 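Inactive calls also include excluded dsRNAs with several or no targets, genes unexpressed in JW18, and well A1, regardless of score.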 A number with no mark means an inactive call. Reagents against one gene are numbered here. Names joined by + are all predicted targets of the reagent.

Target gene	reagent no.	Wolbachia per cell robust z, rep 1	Wolbachia per cell robust z, rep 2	Wolbachia per cell robust z, rep 3
CG31207 (GeneID 326125)	1	-1.26	-1.43	-0.703
Irbp (GeneID 117419)	1	-2.09 (active)	-0.341	-3.9
Irbp (GeneID 117419)	2	0.181	-0.321	-0.476
Irbp (GeneID 117419)	3	1.47	0.551	0.228
Obp56h (GeneID 37271)	1	-0.713	0.567	0.41
Obp56h (GeneID 37271)	2	0.408	1.63	0.999
scu (GeneID 32789)	1	0.388	0.791	0.0607
scu (GeneID 32789)	2	0.894	-4.37	0.298
Gr8a (GeneID 31865)	1	-1.26	0.827	0.0158
CG13887 (GeneID 38096)	1	0.556	-0.308	0.426
CG7239 (GeneID 33809)	1	0.25	-0.175	0.715
sti (GeneID 39429)	1	1.09 (active)	3.26	2.75
sti (GeneID 39429)	2	2.36 (active)	2.71	2.94
G9a (GeneID 30971)	1	-3.99 (active)	-1.61	0.469
Ctr1B + Poxm	1	-1.48	-7.1	-1.18
Ufm1 (GeneID 5740715)	1	0.201	-1.26	-0.303
CG9951 (GeneID 39888)	1	0.763 (active)	-6.8	-4.17
Rsph4a (GeneID 37831)	1	-0.05	0.338	0.483
Rsph4a (GeneID 37831)	2	-1.17	0.359	0.537
Mco1 (GeneID 34258)	1	-3.63	-0.845	-0.44
CG10445 (GeneID 40938)	1	-2.32	0.651	-0.58
Decay (GeneID 42008)	1	-0.0178	-0.577	-7.45
MESR3 (GeneID 35116)	1	0.29	1.83	-1.29
Ir7b (GeneID 31690)	1	-4.79	0.589	-2.95
dup (GeneID 47121)	1	3.28 (active)	3.49	2.61
alien + CG17906	1	0.675	0.849	-1.04
alien + CG17906	2	-0.951	-0.981	-0.936
CG10469 (GeneID 38696)	1	0.219	-0.572	0.149
CG10469 (GeneID 38696)	2	-0.81	-1.87	-1.25
CG3955 (GeneID 36438)	1	-0.833	-0.583	-1.27
CG34274 (GeneID 5740212)	1	0.753	0.736	-0.282
CG31266 (GeneID 42071)	1	-0.0984	0.305	0.606
vib (GeneID 42306)	1	0.686	0.562	-0.372
IFT54 (GeneID 41739)	1	-0.108	-0.225	0.383
beta4GalT7 (GeneID 42991)	1	-0.0139	-1.15	-4.6
PK2-R2 (GeneID 41638)	1	-4.45	0.72	0.16
PK2-R2 (GeneID 41638)	2	-0.365	1.1	0.0893
CG42365 (GeneID 37469)	1	1.17	1.1	1.58
sle (GeneID 41262)	1	0.114	0.28	0.0125
Stip1 (GeneID 33202)	1	0.675 (active)	-2.7	-4.67
Agpat4 (GeneID 39819)	1	-0.0927	0.408	0.944
Agpat4 (GeneID 39819)	2	-8.41	-0.118	-0.128
Mettl4 + CG14907	1	-3.97	-0.688	0.466
Mettl4 + CG14907	2	-0.523	0.715	-1.13
Mettl4 + CG14907	3	1.17	1.3	2.82
Strump (GeneID 39766)	1	0.439	1.15	0.151
Prosalpha4T2 (GeneID 37910)	1	1.14	0.191	0.462
Prosalpha4T2 (GeneID 37910)	2	0.618	1.64	0.229
Prosalpha4T2 (GeneID 37910)	3	-0.526	-0.323	0.541
beat-IIa (GeneID 42086)	1	-0.275	0.102	0.665
beat-IIa (GeneID 42086)	2	1.19	-2.22	0.387
CG11425 (GeneID 40472)	1	-1.55	-1.34	-0.342
CG11425 (GeneID 40472)	2	0.079	-0.459	-0.767
alpha-Est7 (GeneID 40901)	1	-1.25	0.751	-0.429
alpha-Est7 (GeneID 40901)	2	1.29	0.671	0.559
Nha1 (GeneID 33961)	1	0.228	1.19	-1.95
CG3764 (GeneID 39902)	1	-2.73 (active)	-0.708	-1.85
CG15870 (GeneID 36446)	1	-0.333	0.417	0.531
CG15870 (GeneID 36446)	2	0.887	-0.0758	0.725
GstD7 (GeneID 48340)	1	-0.113	0.0234	0.99
GstD7 (GeneID 48340)	2	-0.536	-0.384	-7.6
CG33673 (GeneID 3772423)	1	-0.617	-1.54	-0.641
CG32668 (GeneID 318147)	1	-0.824	-1.18	-1.02
PIG-P + Tcs6	1	-0.209	-0.0563	0.283
PIG-P + Tcs6	2	-0.414	-0.466	0.823
CG14598 (GeneID 40893)	1	0.196	-0.622	0.587
CG14598 (GeneID 40893)	2	-0.0276	-0.709	-0.15
CG13996 (GeneID 33842)	1	-1.17	-0.34	-0.534
l(2)34Fc (GeneID 34838)	1	-0.789	0.196	-0.681
eIF3h (GeneID 45682)	1	1.25	-0.146	-1.97
eIF3h (GeneID 45682)	2	0.593	-1.19	1.97
CG9649 (GeneID 41727)	1	-0.652	-0.297	-2.13
CG9649 (GeneID 41727)	2	0.91	-0.897	0.386
CG9646 (GeneID 36918)	1	0.955	0.204	1.31
baz (GeneID 32703)	1	-3.76	-0.0976	-0.00163
baz (GeneID 32703)	2	-0.889	0.493	-7.39
baz (GeneID 32703)	3	-3.34 (active)	0.413	-1.58
CG42763 (GeneID 10178889)	1	-0.899	0.34	0.182
Nrx-1 (GeneID 42646)	1	-0.147	1.1	-0.0922
CG12929 (GeneID 35987)	1	-0.21	-0.0507	-0.805
CG30183 (GeneID 37749)	1	-1.03	0.575	0.914
CG30183 (GeneID 37749)	2	-0.739	-0.221	-1.9
ppan (GeneID 42502)	1	-0.356	-0.778	-0.284
ppan (GeneID 42502)	2	0.282	0.332	0.399
CG2260 (GeneID 31732)	1	-0.346	1.4	-1.04
CG2260 (GeneID 31732)	2	0.675	1.37	0.905
dod (GeneID 33111)	1	0.677	0.933	1.17
dod (GeneID 33111)	2	0.853	-0.232	-1.74
